Compound potency records, mixed from different reports. Data source: NIAID ChemDB in PubChem.

Common to all: whole-cell or culture tests; species: Mycobacterium tuberculosis

Conditions beyond the fields shown may differ between rows. ECn is the concentration giving n% inhibition of infection, replication or growth. Inhibition is in % at the dose shown (toxicity tests: loss of growth or viability). Blank or dashed fields: not listed here. MIC bound comes from a single tested concentration. A number after MIC or MFC names an inhibition level or a share of isolates.

smiles	strain or isolate	changes	cell line	method	endpoint	dose	result
CC1CCCC(NCCNCC(c2ccccc2)c2ccccc2)C1C					MIC		18.8 µM
NNC(=O)c1ccc(O)cc1					MIC		40 µg/mL
CCCCN(C)/N=N/c1nc[nH]c1C(N)=O	H37Rv			BACTEC	MIC		≥12.5 µg/mL
CCc1cc(C(N)=S)ccn1	H37Rv				Median MIC		0.94 µg/mL
O=C1c2c(O)cc(O)cc2O[C@H](c2ccc(O)cc2)[C@H]1c1c(O)cc(O)c2c(=O)cc(-c3ccc(O)c(O)c3)oc12	H37Rv				EC50		>12.5 µg/mL
Cc1ccc(C)c(NC(=O)CC/C(=N\NC(=O)c2c(O)ccc3ccccc23)C(C)C(=O)c2ccc(O)cc2)c1	H37Rv			BACTEC	MIC bound		>12.5 µg/mL
NNC(=O)c1ccncc1	8S				MIC		0.1 µg/mL
COc1cccc(CSc2ccccn2)c1	H37Rv				MIC90		>6.25 µg/mL
NCC[C@H](O)C(=O)N[C@@H]1C[C@H](N)[C@@H](O[C@H]2O[C@H](CN)[C@@H](O)[C@H](O)[C@H]2O)[C@H](O)[C@H]1O[C@H]1O[C@H](CO)[C@@H](O)[C@H](N)[C@H]1O	TN2229 (N2)				MIC		>256 µg/mL
NC(=O)c1cnccn1	Isolate K10447				MIC		>500 µg/mL
NNC(=O)c1ccc([N+](=O)[O-])cc1					MIC		100 µg/mL
COc1ccc(CSc2ccncc2)cc1	H37Rv				inhibition	6.25 µg/mL	8%
COc1ccc2c(N/N=C/c3ccc4c(c3)OCO4)cc(C)nc2c1	H37Rv		VERO		MIC		12.5 µg/mL
CO[C@H]1/C=C/O[C@@]2(C)Oc3c(C)c(O)c4c(O)c(c(/C=N/N5CCN(C/C=C/c6ccccc6)CC5)c(O)c4c3C2=O)NC(=O)/C(C)=C\C=C\[C@H](C)[C@H](O)[C@@H](C)[C@@H](O)[C@@H](C)[C@H](OC(C)=O)[C@@H]1C	2912 (rifampin-sensitive)				MIC		0.05 µg/mL
CN[C@@H]1[C@@H](O)[C@@H](O[C@@H]2[C@@H](O)[C@H](O[C@H]3O[C@H](CN)CC[C@H]3N)[C@@H](N)C[C@H]2N)OC[C@]1(C)O	H37Rv				Median MIC		4 µg/mL
CC(CNCCc1ccccc1F)NCC12CC3CC(CC(C3)C1)C2					MIC		25 µM
O=C(NNC(=S)Nc1cccc(C(F)(F)F)c1)c1ccncc1	H37Rv			resazurin	MIC bound		<6.25 µg/mL
CO[C@H]1/C=C/O[C@@]2(C)Oc3c(C)c(O)c4c(O)c(c5c(c4c3C2=O)NC2(CCN(CC(C)C)CC2)N=5)=NC(=O)/C(C)=C\C=C\[C@H](C)[C@H](O)[C@@H](C)[C@@H](O)[C@@H](C)[C@H](OC(C)=O)[C@@H]1C	Kurono				MIC		0.016 µg/mL
CC[C@H]1OC(=O)[C@H](C)[C@@H](O[C@H]2C[C@@](C)(OC)[C@@H](O)[C@H](C)O2)[C@H](C)[C@@H](O[C@@H]2O[C@H](C)C[C@H](N(C)C)[C@H]2O)[C@](C)(OC)C[C@@H](C)C(=O)[C@H](C)[C@@H](O)[C@]1(C)O	9135				MIC		>4 µg/mL
N#Cc1ccc(-n2c(=O)oc3ccccc3c2=O)cc1	CNCTC MY331/88				MIC		32 µM
C1CCCC(NCCNC2C3CC4CC(C3)CC2C4)CCC1					MIC		25 µM
O=C1CC(c2ccccc2Br)Oc2ccccc21	H37Rv				EC50		>12.5 µg/mL
CC(CNCC(c1ccccc1)c1ccccc1)N[C@H]1C[C@H]2CC[C@]1(C)C2(C)C					MIC		50 µM
Cc1ccc2oc(=O)n(-c3ccccc3)c(=O)c2c1	CNCTC MY331/88				MIC		125 µM
Nc1ncccc1/C=C/C(=O)c1cc2ccccc2cc1O					inhibition	12.5 µg/mL	0%
CCOC(=O)Nc1cc(N)c2ncn(-c3ccccc3)c2n1	H37Rv				EC50		<12.5 µg/mL
CO[C@H]1/C=C/O[C@@]2(C)Oc3c(C)c(O)c4c(O)c(c(/C=N/N5CCN(C)CC5)c(O)c4c3C2=O)NC(=O)/C(C)=C\C=C\[C@H](C)[C@H](O)[C@@H](C)[C@@H](O)[C@@H](C)[C@H](OC(C)=O)[C@@H]1C	PR503				MIC		≤0.02 µg/mL
CC(=O)NC[C@H]1CN(c2ccc(N3CCOCC3)c(F)c2)C(=O)O1	3R				MIC		0.5 µg/mL
CC(=O)O.O=C1NC2(CCN(Cc3ccccc3)CC2)Nc2ccccc21	H37Rv			BACTEC	inhibition	12.5 µg/mL	-11%
CCOc1ccc(C(=O)N/N=C(/C)CCC(=O)O)cc1					MIC		200 µg/mL
CCCCC(Nc1cc(NC(=O)OCC)nc(N)c1N)C(C)O	H37Rv				EC50		>12.5 µg/mL
Clc1cccc(Sc2nc(Cl)nc3nc[nH]c23)c1	H37Rv				inhibition	6.25 µg/mL	0%
CCN(CC)CCOC(=O)C1C2CC3OC(=O)C1C3C2	H37Rv			BACTEC	MIC bound		>12.5 µg/mL
NCC[C@H](O)C(=O)N[C@@H]1C[C@H](N)[C@@H](O[C@H]2O[C@H](CN)[C@@H](O)[C@H](O)[C@H]2O)[C@H](O)[C@H]1O[C@H]1O[C@H](CO)[C@@H](O)[C@H](N)[C@H]1O	H37Ra				Median MIC		0.63 µg/mL
CCCCCCSC1=C(SCCCCCC)C(=O)c2[nH]cnc2C1=O	H37Rv			BACTEC	MIC bound		>12.5 µg/mL
CCOC(=O)Nc1cc(N)c2nc(C)cnc2n1	H37Rv				EC50		>12.5 µg/mL
Cn1c(N2CCN(CCO)CC2)nc2c1c(=O)n(CC(O)CN1CCN(CCO)CC1)c(=O)n2C	H37Rv			BACTEC	MIC		≥12.8 µg/mL
CC[C@@H](CO)NCCN[C@@H](CC)CO	MDR18			broth dilution / resazurin	MIC		16 µg/mL
CO[C@H]1/C=C/O[C@@]2(C)Oc3c(C)c(O)c4c(O)c(c(/C=N/N5CCN(C6CCCC6)CC5)c(O)c4c3C2=O)NC(=O)/C(C)=C\C=C\[C@H](C)[C@H](O)[C@@H](C)[C@@H](O)[C@@H](C)[C@H](OC(C)=O)[C@@H]1C	H37Rv				Mean MIC		0.006 µg/mL
CCOc1ccc(C(=O)NN)cc1					MIC		40 µg/mL
COc1ccc2nc(-c3ccccc3)cc(NN)c2c1	H37Rv		VERO		inhibition	12.5 µg/mL	99%
CCOC(=O)N(c1ccc(S(N)(=O)=O)cc1)c1cc(Cl)c([N+](=O)[O-])c(N)n1	H37Rv				inhibition	12.5 µg/mL	0%
NNC(=O)c1ccncc1	Clinical isolate 309	INH RIF resistant		resazurin	MIC		6.25 µg/mL
COC(=O)C(=O)C(C(=O)c1ccc(F)cc1)c1nc2n(c1O)C(=N)N=N2	H37Rv			resazurin	inhibition	6.25 µg/mL	6%
O=C(O)COc1ccc(/C=N/NC(=O)c2ccccc2Cl)cc1					MIC		<40 µg/mL
CCOc1ccc2c(NN)ccnc2c1	H37Rv		VERO		inhibition	12.5 µg/mL	88%
CO[C@H]1/C=C/O[C@@]2(C)Oc3c(C)c(O)c4c(O)c(c5c(c4c3C2=O)NC2(CCN(CC(C)C)CC2)N=5)=NC(=O)/C(C)=C\C=C\[C@H](C)[C@H](O)[C@@H](C)[C@@H](O)[C@@H](C)[C@H](OC(C)=O)[C@@H]1C	Strain 70 (L533P)				MIC		0.25 µg/mL
COc1cc(C)c2c(=O)c3c(oc2c1)C(=O)c1c(O)c(OC)cc(O)c1C3=O	RMP-R				MIC		12.5 µg/mL
c1cc(NCCNC2CCCCC2)c2cccnc2c1					MIC		3.13 µM
Cc1ccc(-n2c(=O)oc3ccc(Cl)cc3c2=O)cc1	CNCTC MY331/88				MIC		16 µM
CC/C(=N\NC(=O)c1ccncc1)c1ccc(Cl)cc1	H37Rv		VERO		MIC		0.1 µg/mL
CCOC(=O)Nc1cc2c(c(N)n1)N=C(c1ccc3ccccc3c1)CS2	H37Rv				EC50		<12.5 µg/mL
CC(C)(C)c1ccc(CSc2nc(=O)[nH]c3nc[nH]c23)cc1	H37Rv				MIC90		>6.25 µg/mL
CN(C)c1ccc(-c2nn(C)c3nc(=O)n(C)c(=O)c-3[n+]2[O-])cc1	H37Rv			resazurin	MIC		3.13 µg/mL
CCOc1ccc2c(N/N=C/c3c(OC)ccc4ccccc34)cc(C)nc2c1	H37Rv		VERO		inhibition	12.5 µg/mL	100%
COc1cc2c(cc1OC)C1CC(=O)C(CCCCCCC3CN4CCc5cc(OC)c(OC)cc5C4CC3=O)CN1CC2	H37Rv			BACTEC	MIC		≥12.5 µg/mL
O=C1CC(c2ccccc2)Oc2ccc(Cl)cc21					inhibition	12.5 µg/mL	30%
Cc1ccccc1Sc1ncccn1	H37Ra				MIC		>12.8 µg/mL
CO[C@H]1/C=C/O[C@@]2(C)Oc3c(C)c(O)c4c(O)c(c5c(c4c3C2=O)NC2(CCN(CC(C)C)CC2)N=5)=NC(=O)/C(C)=C\C=C\[C@H](C)[C@H](O)[C@@H](C)[C@@H](O)[C@@H](C)[C@H](OC(C)=O)[C@@H]1C	2227 (rifampin-resistant)				MBC		0.2 µg/mL
COC(=O)NC1C(=O)OC2C1CC1OC12	H37Rv			BACTEC	MIC bound		>12.5 µg/mL
CC1COc2c(N3CCN(C)CC3)c(F)cc3c(=O)c(C(=O)O)cn1c23	890902				MIC		0.5 µg/mL
CO[C@H]1/C=C/O[C@@]2(C)Oc3c(C)c(O)c4c(O)c(c(/C=N/N5CCN(C6CCCC6)CC5)c(O)c4c3C2=O)NC(=O)/C(C)=C\C=C\[C@H](C)[C@H](O)[C@@H](C)[C@@H](O)[C@@H](C)[C@H](O)[C@@H]1C	Isolate 900233 drug-susceptible				MIC		0.125 µg/mL
CN[C@@H]1[C@H](O[C@H]2[C@H](O[C@H]3[C@H](O)[C@@H](O)[C@H](N=C(N)N)[C@@H](O)[C@@H]3N=C(N)N)O[C@@H](C)[C@]2(O)C=O)O[C@@H](CO)[C@H](O)[C@H]1O	9133				MIC		<2 µg/mL
COC(=N)C1(C#N)NC(c2ccsc2)C(C#N)(C#N)NC1c1ccsc1	H37Rv			resazurin	MIC bound		>6.25 µg/mL
Clc1nc(Sc2ccccc2Cl)c2[nH]cnc2n1	H37Rv				inhibition	6.25 µg/mL	0%
Oc1ccc(CCNCCNCCc2ccc(Cl)cc2Cl)cc1					MIC		50 µM
CCN(CC)C(=O)c1cncc(C(N)=O)c1	H37Rv			BACTEC	MIC		≥12.5 µg/mL
COc1cccc(Sc2ccncc2)c1	H37Ra				MIC		>12.8 µg/mL
CC1(C)OC2C(C(=O)NCC(=O)O)OC(n3cnc4c(N)ncnc43)C2O1	H37Rv			BACTEC	MIC bound		>12.5 µg/mL
CC(=O)Nc1cccc(/C=C/C(=O)c2ccccc2O)c1					EC50		>12.5 µg/mL
CCCCCCCCCCCNCCNC1CCCC(C)C1C					MIC		25 µM
O=C(/C=C/c1ccc(I)cc1)c1ccccc1O	H37Rv				EC50		>12.5 µg/mL
Cc1cc(S(=O)(=O)Nc2nc(N)nc(N(C)C)n2)c(S)cc1Cl	H37Rv			BACTEC	MIC bound		>12.5 µg/mL
COc1ccccc1CSc1ncccn1	H37Rv				MIC90		>6.25 µg/mL
COc1ccccc1C(=O)C1N=C(c2ccccc2)OC1=O	H37Rv			BACTEC	MIC bound		>12.5 µg/mL
c1ccc2c(c1)CC(NCCNC1CCCCCCC1)C2					MIC		25 µM
C[CH2][Sn]([Cl])([Cl])[CH2]C.c1cnc2c(c1)ccc1cccnc12	H37Rv		VERO	BACTEC	MIC		6.25 µg/mL
COc1ccc2oc(=O)n(-c3ccc(Br)cc3)c(=O)c2c1	CNCTC MY331/88				MIC		62.5 µM
CCC1=CC(=O)C(C)=C(C)C1=O	H37Rv			BACTEC	inhibition	128 µg/mL	100%
CCOC(=O)Nc1cc(NC/C(=C\O)c2ccc(C)cc2)c([N+](=O)[O-])c(N)n1	H37Rv				EC50		>12.5 µg/mL